In patent US20100249021A1 one finds IC50, plaque inhibition on MDCK cells and Inhibitory rate (%) of plaques, peptide data, which are given here for six molecules.

Test [1] concerns the target membrane protein HA of human influenza virus A/Jiangxi/312/2005 (H3N2) (human influenza virus A/Jiangxi/312/2005 (H3N2)). The experiment in a line: cell-based or functional assay.
Test [2] has as its target membrane protein HA of recombinant human influenza virus A/WSN/33 (H1N1) (human influenza virus A/WSN/33 (H1N1)), P03454. The test can be described thus: cell-based or functional assay.

Regarding KESTQKAIDGVTNKVNSIIDK (modifications not checked) [polypeptide HR1 derived from strain QH], the IC50, plaque inhibition on MDCK cells came to 16.4 µM in test [1] and 11.1 µM in test [2].
FHDSNVKNLYDKVRLQ (modifications not checked) [polypeptide HR2C] gave an Inhibitory rate (%) of plaques, peptide at 200 µM in test [1] of 17.1%. In addition, the Inhibitory rate (%) of plaques, peptide at 100 µM in test [2] was determined as 29.6%.
The matching figures for RRIENLNKKMEDGFLDVWTY (modifications not checked) [polypeptide HR2A]: 51.4% and 42%.
The matching figures for NAELLVLMENERTLDFHDSNVKN (modifications not checked) [polypeptide HR2B]: 15.2% and 43%.
On to KESTQKAIDGVTAAAANKVNSIIDK (modifications not checked) [mutant polypeptide HR1-2], for which the IC50, plaque inhibition on MDCK cells in test [1] was 112 µM; in test [2] it was 110 µM.
The corresponding values for KESTQKIIDGVTNKVNSIIDK (modifications not checked) [mutant polypeptide HR1-1] are 38.2 µM and 29.3 µM.
